Measured values from several laboratories, pooled; numbers as filed in NIAID ChemDB.

Shared fields: tests in culture

Blank or dashed fields: not listed here.

{"structure": "O=C1c2ccccc2NC(c2ccc(Br)cc2)N1c1ccco1", "endpoint": "EC50", "species": "Plasmodium berghei", "strain or isolate": "ANKA", "method": "luciferase", "value": ">20 µM"}
{"structure": "CCO/C(=N/NC(=O)OC(C)(C)C)C(C)(O)c1ccc(Cl)c(Cl)c1", "dose": "5 µM", "endpoint": "inhibition", "species": "Plasmodium falciparum", "strain or isolate": "3D7", "method": "hypoxanthine uptake / radiometric", "value": "75%"}
{"structure": "O=c1c(-c2ccc(O)cc2)coc2cc(OC3OC(CO)C(O)C(O)C3O)cc(O)c12", "endpoint": "EC50", "species": "Plasmodium berghei", "cell line": "Huh7", "strain or isolate": "GFP-Luc", "method": "resazurin", "value": "20 µM"}
{"structure": "N=C(N)c1ccc(OCCCCCCOc2ccc(C(=N)N)cc2)cc1", "endpoint": "EC50", "species": "Plasmodium falciparum", "strain or isolate": "D6", "method": "hypoxanthine uptake", "value": "0.123 µM"}
{"structure": "CC(C)(C)OC(=O)N[C@@H](CCCNC(=O)OCc1ccccc1)C(=O)N[C@@H](Cc1ccccc1)C(=O)OC(C)(C)C", "endpoint": "EC50", "species": "Plasmodium berghei", "cell line": "Erythrocytes", "strain or isolate": "ANKA 2.34", "method": "schizont maturation", "value": "33.88 µM"}
{"structure": "FC(F)(F)c1ccc2c(=Nc3ccc(-c4ccccc4)cc3)ccn(CCCN3CCCCC3)c2c1", "endpoint": "EC50", "species": "Plasmodium berghei", "cell line": "Huh7", "method": "luciferase", "value": ">1 µM"}
{"structure": "N=C(N)c1cccc(OCCCOc2cccc(C(=N)N)c2)c1", "endpoint": "EC50", "species": "Plasmodium falciparum", "strain or isolate": "D6", "method": "hypoxanthine uptake", "value": "0.14 µM"}
{"structure": "CCOC(=O)N/N=C(/OCC)C(C)(O)c1ccc(Cl)cc1", "dose": "5 µM", "endpoint": "inhibition", "species": "Plasmodium falciparum", "strain or isolate": "3D7", "method": "hypoxanthine uptake / radiometric", "value": "75%"}
{"structure": "Clc1ccc2c(=Nc3ccc(Oc4ccccc4)cc3)ccn(CCCN3CCCCC3)c2c1", "endpoint": "EC50", "species": "Plasmodium berghei", "cell line": "Huh7", "method": "luciferase", "value": ">1 µM"}
{"structure": "CN1CCC(N(C)C(=O)c2c[n+]3c(cn2)CN=C3c2ccc(C(F)(F)F)cc2)CC1", "endpoint": "EC50", "species": "Plasmodium yoelii", "method": "SYBR Green", "value": ">10 µM"}
{"structure": "FC(F)(F)c1ccc2c(c1)c(=Nc1ccc(-c3ccccc3)cc1)ccn2CCCN1CCCCC1", "endpoint": "EC50", "species": "Plasmodium berghei", "cell line": "Huh7", "method": "luciferase", "value": ">1 µM"}
{"structure": "Cc1nc2c(OC(F)F)cccc2n1-c1ccc(C(=O)NC2CC2)s1", "endpoint": "EC50", "species": "Plasmodium berghei", "method": "luciferase", "value": "0.084 µM"}
{"structure": "N=C(N)c1ccc(NCCCCCCNc2ccc(C(=N)N)cc2)cc1", "endpoint": "EC50", "species": "Plasmodium falciparum", "strain or isolate": "W2", "method": "hypoxanthine uptake", "value": "0.053 µM"}
{"structure": "C[C@H]1CCCC(C[C@@H]2Cc3cc(O)cc(O)c3C(=O)O2)O1", "endpoint": "EC50", "species": "Plasmodium yoelii", "method": "SYBR Green", "value": "0.04 µM"}
{"structure": "CCCCCCCCCCCCCC#CC(=O)O", "endpoint": "EC50", "species": "Plasmodium berghei", "cell line": "Huh7", "method": "resazurin / fluorescence", "value": "0.48 µg/mL"}
{"structure": "CC(C)Nc1nc2cc(-c3ccc(Cl)cc3)sc2c(=O)[nH]1.O=C(O)/C=C/C(=O)O", "endpoint": "EC50", "species": "Plasmodium yoelii", "method": "fluorescence", "value": "0.06 µM"}
{"structure": "CCO/C(=N/NC(=O)OC)C(C)(O)c1ccc(Cl)c(C)c1", "dose": "5 µM", "endpoint": "inhibition", "species": "Plasmodium falciparum", "strain or isolate": "3D7", "method": "hypoxanthine uptake / radiometric", "value": "72%"}
{"structure": "CC(C)(C)c1cc(C(=O)Nc2nc(CN)cs2)n(Cc2ccccc2)n1", "endpoint": "EC50", "species": "Plasmodium berghei", "strain or isolate": "NF54", "value": "0.07 µM"}
{"structure": "CCN(CC)CCN1C(=O)c2ccccc2NC1c1ccc(Cl)cc1Cl", "endpoint": "EC50", "species": "Plasmodium berghei", "strain or isolate": "ANKA", "method": "luciferase", "value": ">20 µM"}
{"structure": "FC(F)(F)c1ccc2c(=Nc3ccc(-c4ccccc4)cc3)ccn(CCN3CCCC3)c2c1", "endpoint": "EC50", "species": "Plasmodium berghei", "cell line": "Huh7", "method": "luciferase", "value": ">1 µM"}
{"structure": "CCN(CC)CCN1C(=O)c2ccccc2NC1c1ccc2c(c1)OCO2", "endpoint": "EC50", "species": "Plasmodium berghei", "strain or isolate": "ANKA", "method": "luciferase", "value": "2.3 µM"}
{"structure": "Clc1ccc2c(=Nc3ccccc3)ccn(CCCN3CCCCC3)c2c1", "endpoint": "EC50", "species": "Plasmodium berghei", "cell line": "Huh7", "method": "luciferase", "value": ">1 µM"}
{"structure": "N=C(N)c1ccc(OCCCCOc2ccc(C(=N)N)cc2Cl)c(Cl)c1", "endpoint": "EC50", "species": "Plasmodium falciparum", "strain or isolate": "D6", "method": "hypoxanthine uptake", "value": "0.144 µM"}
{"structure": "C=C[C@H]1CN2CC[C@H]1C[C@H]2[C@H](O)c1ccnc2ccc(OC)cc12", "dose": "0.016 µg/mL", "endpoint": "inhibition", "conditions": "48 h", "species": "Plasmodium falciparum", "strain or isolate": "W2", "value": "73%"}
{"structure": "CN[C@@H](CC1=c2c(O)c3c(c(O)c2N=C1)=NC=CS3(=O)=O)C(=O)O", "endpoint": "MIC", "species": "Plasmodium falciparum", "strain or isolate": "Dd2", "value": "0.171 µM"}
{"structure": "NC1=Nc2ccc(Cl)cc2C1(O)c1ccccc1", "endpoint": "EC50", "species": "Plasmodium spp.", "strain or isolate": "PK H1", "method": "fluorescence", "value": "336 nM"}
{"structure": "CCN(CC)CCCn1ccc(=Nc2ccc(-c3ccccc3)cc2)c2ccc(C(F)(F)F)cc21", "endpoint": "EC50", "species": "Plasmodium berghei", "cell line": "Huh7", "method": "luciferase", "value": ">1 µM"}
{"structure": "CCCCN1C(=O)c2ccccc2NC1c1ccc(F)cc1", "endpoint": "EC50", "species": "Plasmodium berghei", "strain or isolate": "ANKA", "method": "luciferase", "value": ">20 µM"}
{"structure": "CCO/C(=N/NC(=O)OCc1ccccc1)C(C)(O)c1ccc(C)cc1", "dose": "5 µM", "endpoint": "inhibition", "species": "Plasmodium falciparum", "strain or isolate": "3D7", "method": "hypoxanthine uptake / radiometric", "value": "19%"}

For reference, 2 entries again:

structure	dose	endpoint	conditions	species	cell line	strain or isolate	method	value
N=C(N)c1ccc(OCCCCCCOc2ccc(C(=N)N)cc2)cc1	-	EC50	-	Plasmodium falciparum	-	D6	hypoxanthine uptake	0.123 µM
O=C1c2ccccc2NC(c2ccc(Br)cc2)N1c1ccco1	-	EC50	-	Plasmodium berghei	-	ANKA	luciferase	>20 µM

Lines come from different laboratories, so protocols vary. ECn is the concentration giving n% inhibition of infection, replication or growth. Percent inhibition refers to the dose given; in toxicity tests it is the harm to the cells.